This passage reports Ki results from ChEMBL document CHEMBL3994664, “Comparison of the anion inhibition profiles of the β- and γ-carbonic anhydrases from the pathogenic bacterium Burkholderia pseudomallei” (2017).

A short description of the test: Inhibition of Burkholderia pseudomallei recombinant carbonic anhydrase gamma incubated for 15 mins prior to testing by stopped flow CO2 hydration method.

As a reminder, the pKi is the Ki on a negative log10 scale, so that one unit is a factor of ten.

pKi: −log10 of the molar value.

As for `O=[As](O)(O)c1ccccc1`, the pKi was 4.31. With `NS(=O)(=O)O`, the negative logarithm of the Ki (pKi) was 4.08. Consider `OB(O)c1ccccc1`, for which the negative logarithm of the Ki (pKi) was 4.13. For the compound `NS(N)(=O)=O`, the negative-log Ki (pKi) is 4.11.
